Assay results as given in publication PMC10293653 (International Journal of Biological Macromolecules, 2023).

Tested on: Wt-SARS-CoV-2
Assay type: cell-based

Compound: CC#CCn1c(N2CCC[C@@H](N)C2)nc2c1c(=O)n(Cc1nc(C)c3ccccc3n1)c(=O)n2C [Linagliptin, linagliptin]
- effect on multiplication of viruses: halted the multiplication of viruses
